# PubChem BioAssay AID1259414 – Drosophila RNAi Screening Center, 2018
# Screen: 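Host factors increasing or decreasing Wolbachia levels in cultured fly cells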 (primary screen)
# Cell system: Drosophila JW18 cells infected with Wolbachia
# Reagent: long dsRNA against Drosophila genes, 0.25 µg dsRNA per well of a 384-well plate
# Duration: 5 days
# Treatment: cells persistently infected with Wolbachia before knock-down; no added drug
# Read-out: 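Imaged fluorescence in situ signal for Wolbachia 23S rRNA per DAPI-counted host cell, given as a robust z-score within each plate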
# Direction: Wolbachia per cell robust z: higher = more Wolbachia per host cell than the plate typical
# Call rule: 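Active if absolute robust z reaches 1.5 in two or more of three replicates, leaving out multi- or no-target dsRNAs, genes unexpressed in JW18 and A1 wells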
# In all, the deposit lists about 24,000 reagents; below is a random part of those with a known target gene and a result. In the full data, about 1,210 (5%) got an active call. 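Inactive calls also include excluded dsRNAs with several or no targets, genes unexpressed in JW18, and well A1, regardless of score.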 Reagents against one gene are numbered here. A plus sign joins genes that one reagent is predicted to hit.
target,reagent no.,"Wolbachia per cell robust z, rep 1","Wolbachia per cell robust z, rep 2","Wolbachia per cell robust z, rep 3",call
Fitm,1,1.5,0.0477,-0.497,inactive
Fitm,2,1.13,-0.85,0.348,inactive
CG10839,1,0.712,1.43,0.034,inactive
Gabat,1,1.14,0.936,0.226,inactive
CG44247 + veg (retired record),1,-1.95,-0.274,0.495,inactive
Rok,1,0.669,1.01,0.333,inactive
Rok,2,-1.15,-1.49,-0.865,inactive
Cyp9c1,1,0.48,-1.82,0.207,inactive
Cyp9c1,2,0.767,-0.436,1.11,inactive
Mtmr6,1,-5.43,-0.0211,-2.7,active
Mtmr6,2,-0.357,-0.0515,-0.84,inactive
alpha-Man-Ia,1,0.92,-0.886,0.674,inactive
alpha-Man-Ia,2,0.256,0.668,0.702,inactive
alpha-Man-Ia,3,0.832,-0.995,-0.328,inactive
alpha-Man-Ia,4,-1.16,-0.408,-0.58,inactive
alpha-Man-Ia,5,0.656,0.0536,0.492,inactive
ImpE2,1,1.01,-0.241,0.197,inactive
ImpE2,2,-0.378,0.0577,1.46,inactive
CG14459,1,-0.556,-0.112,-2.06,inactive
Gpdh2,1,-2.52,-0.0765,-6.32,inactive
Mipp1,1,0.563,-1.83,-1.77,inactive
CG4119,1,-0.573,-0.972,-0.27,inactive
CG4119,2,1.16,-0.224,0.00149,inactive
CG12078,1,0.376,1.52,0.673,inactive
Asph,1,0.653,0.326,0.473,inactive
Asph,2,1.03,0.942,-1.15,inactive
Asph,3,-8.38,0.227,-2.6,active
ps,1,-4.94,0.544,0.431,inactive
ps,2,1.15,1.44,-0.0438,inactive
ps,3,-1.42,-0.556,-4.06,inactive
ps,4,-4.5,-2.92,-4.71,inactive
ps,5,-0.829,-1.44,-0.558,inactive
CG33783,1,1.32,-0.758,-0.517,inactive
Tdc1,1,0.769,0.632,0.0907,inactive
E(spl)m7-HLH,1,-3.89,0.631,0.337,inactive
E(spl)m7-HLH,2,-0.385,1.58,-0.289,inactive
CG42762,1,-1.09,0.353,0.295,inactive
Syn1 + CG7370,1,-0.367,-0.344,-1.95,inactive
D19B,1,1.04,-0.67,0.0802,inactive
D19B,2,0.809,1.17,0.994,inactive
RpS9,1,0.807,2.16,5.1,active

Targets above whose target name begins with G or g:
target,reagent no.,"Wolbachia per cell robust z, rep 1","Wolbachia per cell robust z, rep 2","Wolbachia per cell robust z, rep 3",call
Gabat,1,1.14,0.936,0.226,inactive
Gpdh2,1,-2.52,-0.0765,-6.32,inactive

The listing continues:
target,reagent no.,"Wolbachia per cell robust z, rep 1","Wolbachia per cell robust z, rep 2","Wolbachia per cell robust z, rep 3",call
Cpsf73,1,-4.08,1.68,-0.0784,inactive
Cpsf73,2,0.516,1.36,0.401,inactive
CG8204,1,1.05,0.927,-0.519,inactive
bnb,1,0.387,-6.64,0.167,inactive
bnb,2,-0.663,1.62,1.01,inactive
CG13634,1,-0.0641,0.193,-0.0718,inactive
ppk16,1,-0.452,1.84,0.27,inactive
CG4565 + CG6567,1,0.431,0.523,0.0024,inactive
DIP1,1,0.392,0.872,1.81,inactive
DIP1,2,1.57,1.25,0.854,inactive
cpx,1,-0.718,-0.445,0.574,inactive
RapGAP1,1,-0.217,1.35,-3.43,inactive
RapGAP1,2,0.226,0.627,0.538,inactive
RapGAP1,3,-0.103,1.08,-0.411,inactive
RapGAP1,4,-0.689,-0.892,0.559,inactive
RapGAP1,5,-0.788,0.99,-1.08,inactive
RapGAP1,6,-0.573,0.693,-0.743,inactive
betaggt-I,1,-0.779,-5.57,-0.293,inactive
alpha-Est3,1,-0.425,0.545,-0.157,inactive
CG4362,1,0.366,-0.431,1.31,inactive
CG33189,1,-0.0897,0.896,-0.989,inactive
CG33189,2,-0.175,-0.143,1.51,inactive
Nse1,1,-0.879,-2.39,0.387,inactive
Acp29AB,1,-0.471,-1.11,0.618,inactive
Acp29AB,2,-0.187,0.214,0.179,inactive
CG34298,1,-5.05,-5.78,0.886,inactive
Gapvd1,1,0.881,-1.67,0.584,inactive
Gapvd1,2,-8.33,-0.632,-9.68,active
